Measured values from several laboratories, pooled; numbers as filed in NIAID ChemDB.

Common to all: tests in culture; species: Staphylococcus aureus; read-out: MIC

Conditions beyond the fields shown may differ between rows.

structure | strain or isolate | value
CCCCC(CO)Nc1cc2c(cc1F)c(=O)c(C(=O)O)cn2C1CC1 | ATCC 6538P | >100 µg/mL
CC[C@H]1OC(=O)[C@H](C)C(=O)[C@H](C)[C@@H](O[C@@H]2O[C@H](C)C[C@H](N(C)C)[C@H]2O)[C@@]2(C)C[C@@H](C)C(=NC(C)=O)[C@H](C)C(OC/C(=C\C#Cc3ccc(N)cc3)CO2)[C@]1(C)O | 33591 (erythromycin methicillin-resistant) | >64 µg/mL
CS(=O)(=O)NC1CCN(c2ccc(N3C[C@H](COc4ccon4)OC3=O)cc2F)CC1 | 122 (novobiocin-resistant) | 8 µg/mL
Cc1c(N)c(F)cc2c(=O)c(C(=O)O)cn(-c3cc(N)c(F)cc3F)c12 | W44 (methicillin-resistant) | 1 µg/mL
CC[C@H]1OC(=O)[C@@](C)(F)C(=O)[C@H](C)[C@@H](O[C@@H]2O[C@H](C)C[C@H](N(C)C)[C@H]2O)[C@@]2(C)C[C@@H](C)C(=NC(C)=O)[C@H](C)[C@@H](OC/C(=N\OCc3ccc(-c4nccs4)nc3)CO2)[C@]1(C)O | 29213 (erythromycin A-susceptible) | 0.5 µg/mL
CC[C@H]1OC(=O)[C@H](C)C(=O)[C@H](C)[C@@H](O[C@@H]2O[C@H](C)C[C@H](N(C)C)[C@H]2O)[C@@]2(C)C[C@@H](C)C(=NC(C)=O)[C@H](C)C(OC/C(=C\C#Cc3cccnc3)CO2)[C@]1(C)O | 29213 (erythromycin-susceptible) | 0.25 µg/mL
CC[C@H]1OC(=O)C[C@@H](O)[C@H](C)[C@@H](O[C@@H]2O[C@H](C)[C@@H](O)[C@H](N(C)C)[C@H]2O)C(C=O)C[C@@H](C)C(=O)/C=C/C(C)=C/[C@@H]1COC | 25923 (erythromycin-susceptible) | 0.5 µg/mL
CCCCCCCCCCCC[N+](C)(C)CSCCCC | ATCC 6538 | 2.84 µM
CC[C@H]1OC(=O)[C@H](C)C(=O)[C@H](C)[C@@H](O[C@@H]2O[C@H](C)C[C@H](N(C)C)[C@H]2O)[C@@]2(C)C[C@@H](C)C(=NC(C)=O)[C@H](C)[C@@H](OC/C(=N\OCc3ccc(-c4cccc(N)n4)s3)CO2)[C@]1(C)O | 29213 (erythromycin A-susceptible) | 0.25 µg/mL
O=C(O)c1cn(C2CC2)c2cc(NCCO)c(F)cc2c1=O | ATCC 5278 (methicillin-resistant) | 12.5 µg/mL
CC[C@H]1OC(=O)[C@H](C)C(=O)[C@H](C)[C@@H](O[C@@H]2O[C@H](C)C[C@H](N(C)C)[C@H]2O)[C@@]2(C)C[C@@H](C)C(=NC(C)=O)[C@H](C)C(OC/C(=C\C=C\c3ccc([N+](=O)[O-])cc3)CO2)[C@]1(C)O | 29213 (erythromycin-susceptible) | 0.5 µg/mL
COc1ccc(CNc2cc3c(cc2F)c(=O)c(C(=O)O)cn3C2CC2)cc1OC | ATCC 5278 (methicillin-resistant) | >100 µg/mL
Cc1c(NCCO)c(F)cc2c(=O)c(C(=O)O)cn(-c3cc(N)c(F)cc3F)c12 | MR8736 (methicillin-resistant) | 8 µg/mL
CC[C@H]1OC(=O)[C@@](C)(F)C(=O)[C@H](C)[C@@H](O[C@@H]2O[C@H](C)C[C@H](N(C)C)[C@H]2O)[C@@]2(C)C[C@@H](C)C(=NC(C)=O)[C@H](C)[C@@H](OC/C(=N\OCc3cccc(C(N)=O)c3)CO2)[C@]1(C)O | 29213 (erythromycin A-susceptible) | 0.25 µg/mL
CC(=O)NC[C@H]1CN(c2ccc(N(C)S(C)(=O)=O)c(F)c2)C(=O)O1 | ATCC 29213 (linezolid-resistant) | >64 µg/mL
CC(=O)NC[C@H]1CN(c2ccc(-c3nsc(C#N)n3)c(F)c2)C(=O)O1 | UC6685 (methicillin-resistant) | 4 µg/mL
CC[C@H]1OC(=O)[C@H](C)C(=O)[C@H](C)[C@@H](O[C@@H]2O[C@H](C)C[C@H](N(C)C)[C@H]2O)[C@](C)(OC)C[C@@H](C)C(=O)[C@H](C)[C@H]2N(CCCCn3cnc(-c4cccnc4)c3)C(=O)O[C@]12C | 29213 (erythromycin A-susceptible) | 0.13 µg/mL
CC(=O)NC[C@H]1CN(c2ccc(N(C)C(=O)c3ccno3)c(F)c2)C(=O)O1 | ATCC 29213 (linezolid-resistant) | >64 µg/mL
N#Cc1ccc(N2CCN(c3ccc(N4C[C@H](COc5ccccn5)OC4=O)cc3F)CC2)nc1 | 004 (methicillin quinolone-resistant) | 1 µg/mL
CC[C@H]1OC(=O)[C@H](C)C(=O)[C@H](C)[C@@H](O[C@@H]2O[C@H](C)C[C@H](N(C)C)[C@H]2O)[C@@]2(C)C[C@@H](C)C(=NC(C)=O)[C@H](C)[C@@H](OC/C(=N\OCc3ccc(C(N)=O)cc3)CO2)[C@]1(C)O | 27660 (erythromycin-resistant) | 0.13 µg/mL
CC(=O)NC[C@H]1CN(c2ccc(NC(=O)c3ccc([N+](=O)[O-])o3)c(F)c2)C(=O)O1 | ATCC 29213 (linezolid-resistant) | 8 µg/mL
CC[C@H]1OC(=O)[C@H](C)C(=O)[C@H](C)[C@@H](O[C@@H]2O[C@H](C)C[C@H](N(C)C)[C@H]2O)[C@@]2(C)C[C@@H](C)C(=NC(C)=O)[C@H](C)[C@@H](OC/C(=N\OCc3cccc(N)n3)CO2)[C@]1(C)O | 27660 (erythromycin-resistant) | 0.13 µg/mL
C=CCOC[C@H]1/C=C(C)/C=C/C(=O)[C@H](C)CC(C=O)[C@H](O[C@@H]2O[C@H](C)[C@@H](O)[C@H](N(C)C)[C@H]2O)[C@@H](C)[C@H](O)CC(=O)O[C@@H]1CC | 25923 (erythromycin-susceptible) | 0.25 µg/mL
CCOC(=O)c1nc(-c2ccc(N3C[C@H](CNC(C)=O)OC3=O)cc2F)ns1 | UC9213 (methicillin-susceptible) | >16 µg/mL
CC[C@H]1OC(=O)C[C@@H](O)[C@H](C)[C@@H](O[C@@H]2O[C@H](C)[C@@H](O)[C@H](N(C)C)[C@H]2O)C(C=O)C[C@@H](C)C(=O)/C=C/C(C)=C/[C@@H]1COC(=O)Nc1ccc(OC)cc1 | 25923 (erythromycin-susceptible) | 1 µg/mL
O=C1O[C@@H](CNc2ccon2)CN1c1ccc(-n2ccnc2)c(F)c1 | 004 (methicillin quinolone-resistant) | 0.5 µg/mL
CCCCCCCCCCOC[N+](C)(C)CCCCCCCC | ATCC 6538 | 2.75 µM
CC[C@H]1OC(=O)[C@H](C)C(=O)[C@H](C)[C@@H](O[C@@H]2O[C@H](C)C[C@H](N(C)C)[C@H]2O)[C@@]2(C)C[C@@H](C)C(=NC(C)=O)[C@H](C)[C@@H](OC/C(=N/OCc3ccc(-c4cccc(N)n4)s3)CO2)[C@]1(C)O | 27660 (erythromycin A -resistant) | 0.5 µg/mL
CC[C@H]1OC(=O)[C@H](C)C(=O)[C@H](C)[C@@H](O[C@@H]2O[C@H](C)C[C@H](N(C)C)[C@H]2O)[C@@]2(C)C[C@@H](C)C(=NC(C)=O)[C@H](C)C(OC/C(=N\OCC#Cc3cccc(N)n3)CO2)[C@]1(C)O | 25923 (erythromycin-susceptible) | 0.13 µg/mL
CCCCCCCCCCCC[N+](C)(C)COC(C)C | ATCC33592 | 9.32 µM
CC(=O)NC[C@H]1CN(c2ccc(-c3ccn(C)n3)c(F)c2)C(=O)O1 | UC9213 (methicillin-susceptible) | 8 µg/mL
CC[C@H]1OC(=O)C[C@@H](O)[C@H](C)[C@@H](O[C@@H]2O[C@H](C)[C@@H](O)[C@H](N(C)C)[C@H]2O)C(C=O)C[C@@H](C)C(=O)/C=C/C(C)=C/[C@@H]1COC(=O)NCCc1ccccc1 | 25923 (erythromycin-susceptible) | 0.25 µg/mL
CC[C@H]1OC(=O)[C@H](C)C(=O)[C@H](C)[C@@H](O[C@@H]2O[C@H](C)C[C@H](N(C)C)[C@H]2O)[C@@]2(C)C[C@@H](C)C(=NC(C)=O)[C@H](C)C(OC/C(=C\C=C\c3ccc(OC)cc3)CO2)[C@]1(C)O | 29213 (erythromycin-susceptible) | 0.5 µg/mL
CCCCCCCCCCCCOC[N+](C)(C)CCCCCCCC | ATCC 6538 | 1.28 µM
CC[C@H]1OC(=O)[C@H](C)C(=O)[C@H](C)[C@@H](O[C@@H]2O[C@H](C)C[C@H](N(C)C)[C@H]2O)[C@@]2(C)C[C@@H](C)/C(=N\C(=O)OC)[C@H](C)C(OC/C(=C\C=C\c3ccccc3)CO2)[C@]1(C)O | 33591 (erythromycin methicillin-resistant) | 64 µg/mL
C=CCn1cc(-c2ccc(N3C[C@H](CNC(C)=O)OC3=O)cc2F)cn1 | UC6685 (methicillin-resistant) | 2 µg/mL
Cc1c(NC2CC2)c(F)cc2c(=O)c(C(=O)O)cn(-c3cc(N)c(F)cc3F)c12 | 209P | 0.015 µg/mL
C=C1COC2[C@@H](C)C(=NC(C)=O)[C@H](C)C[C@@](C)(OC1)[C@H](O[C@@H]1O[C@H](C)C[C@H](N(C)C)[C@H]1O)[C@@H](C)C(=O)[C@@H](C)C(=O)O[C@H](CC)[C@@]2(C)O | 27660 (erythromycin-resistant) | 2 µg/mL
CC[C@H]1OC(=O)[C@H](C)C(=O)[C@H](C)[C@@H](O[C@@H]2O[C@H](C)C[C@H](N(C)C)[C@H]2O)[C@@]2(C)C[C@@H](C)C(=NC(C)=O)[C@H](C)[C@@H](OC/C(=N\Oc3ccc(-c4cnccn4)s3)CO2)[C@]1(C)O | 27660 (erythromycin-resistant) | 0.125 µg/mL
CNCCCN(C)c1cc2c(cc1F)c(=O)c(C(=O)O)cn2C1CC1 | ATCC 6538P | 1.56 µg/mL
O=C1O[C@@H](COc2ccon2)CN1c1ccc(N2CC(O)C2)c(F)c1 | 122 (novobiocin-resistant) | 16 µg/mL
CC1CN(c2cc3c(cc2F)c(=O)c(C(=O)O)cn3C2CC2)CC(C)N1 | ATCC 5278 (methicillin-resistant) | 1.56 µg/mL
CC(=O)NC[C@H]1CN(c2ccc(NC(=O)c3ccccn3)c(F)c2)C(=O)O1 | ATCC 29213 (linezolid-resistant) | >64 µg/mL
NCCCCCCCNc1cc2c(cc1F)c(=O)c(C(=O)O)cn2C1CC1 | ATCC 6538P | >100 µg/mL
CC(=O)NC[C@H]1CN(c2ccc(-c3cnn(Cc4ccccc4)c3)c(F)c2)C(=O)O1 | UC6685 (methicillin-resistant) | 8 µg/mL
CCCCCCCC[N+](C)(C)COCC(CC)CCCC | ATCC 6538 | 7.4 µM
CC[C@H]1OC(=O)[C@@](C)(F)C(=O)[C@H](C)[C@@H](O[C@@H]2O[C@H](C)C[C@H](N(C)C)[C@H]2O)[C@@]2(C)C[C@@H](C)C(=NC(C)=O)[C@H](C)[C@@H](OC/C(=N\OCc3ccc(-n4cccn4)nc3)CO2)[C@]1(C)O | 29213 (erythromycin A-susceptible) | 0.25 µg/mL
O=C1O[C@@H](COc2ccon2)CN1c1ccc(-n2cnc(CO)c2)c(F)c1 | 004 (methicillin quinolone-resistant) | 4 µg/mL
CC[C@H]1OC(=O)[C@H](C)C(=O)[C@H](C)[C@@H](O[C@@H]2O[C@H](C)C[C@H](N(C)C)[C@H]2O)[C@@]2(C)C[C@@H](C)C(=NC(C)=O)[C@H](C)[C@@H](OC/C(=N\Oc3ccc(-c4nnc(N)s4)cc3)CO2)[C@]1(C)O | 33591 (erythromycin methicillin-resistant) | >64 µg/mL

Repeating the first 4 entries:

CCCCC(CO)Nc1cc2c(cc1F)c(=O)c(C(=O)O)cn2C1CC1 ; strain or isolate: ATCC 6538P ; value: >100 µg/mL
CC[C@H]1OC(=O)[C@H](C)C(=O)[C@H](C)[C@@H](O[C@@H]2O[C@H](C)C[C@H](N(C)C)[C@H]2O)[C@@]2(C)C[C@@H](C)C(=NC(C)=O)[C@H](C)C(OC/C(=C\C#Cc3ccc(N)cc3)CO2)[C@]1(C)O ; strain or isolate: 33591 (erythromycin methicillin-resistant) ; value: >64 µg/mL
CS(=O)(=O)NC1CCN(c2ccc(N3C[C@H](COc4ccon4)OC3=O)cc2F)CC1 ; strain or isolate: 122 (novobiocin-resistant) ; value: 8 µg/mL
Cc1c(N)c(F)cc2c(=O)c(C(=O)O)cn(-c3cc(N)c(F)cc3F)c12 ; strain or isolate: W44 (methicillin-resistant) ; value: 1 µg/mL